# Target: hERG (Homo sapiens, UniProt Q12809)
# Sequences of proteins named here, by UniProt entry; tags and fusion partners are left off. A change or cut given only in a name is not applied to a line headed by its entry.
# UniProt Q12809: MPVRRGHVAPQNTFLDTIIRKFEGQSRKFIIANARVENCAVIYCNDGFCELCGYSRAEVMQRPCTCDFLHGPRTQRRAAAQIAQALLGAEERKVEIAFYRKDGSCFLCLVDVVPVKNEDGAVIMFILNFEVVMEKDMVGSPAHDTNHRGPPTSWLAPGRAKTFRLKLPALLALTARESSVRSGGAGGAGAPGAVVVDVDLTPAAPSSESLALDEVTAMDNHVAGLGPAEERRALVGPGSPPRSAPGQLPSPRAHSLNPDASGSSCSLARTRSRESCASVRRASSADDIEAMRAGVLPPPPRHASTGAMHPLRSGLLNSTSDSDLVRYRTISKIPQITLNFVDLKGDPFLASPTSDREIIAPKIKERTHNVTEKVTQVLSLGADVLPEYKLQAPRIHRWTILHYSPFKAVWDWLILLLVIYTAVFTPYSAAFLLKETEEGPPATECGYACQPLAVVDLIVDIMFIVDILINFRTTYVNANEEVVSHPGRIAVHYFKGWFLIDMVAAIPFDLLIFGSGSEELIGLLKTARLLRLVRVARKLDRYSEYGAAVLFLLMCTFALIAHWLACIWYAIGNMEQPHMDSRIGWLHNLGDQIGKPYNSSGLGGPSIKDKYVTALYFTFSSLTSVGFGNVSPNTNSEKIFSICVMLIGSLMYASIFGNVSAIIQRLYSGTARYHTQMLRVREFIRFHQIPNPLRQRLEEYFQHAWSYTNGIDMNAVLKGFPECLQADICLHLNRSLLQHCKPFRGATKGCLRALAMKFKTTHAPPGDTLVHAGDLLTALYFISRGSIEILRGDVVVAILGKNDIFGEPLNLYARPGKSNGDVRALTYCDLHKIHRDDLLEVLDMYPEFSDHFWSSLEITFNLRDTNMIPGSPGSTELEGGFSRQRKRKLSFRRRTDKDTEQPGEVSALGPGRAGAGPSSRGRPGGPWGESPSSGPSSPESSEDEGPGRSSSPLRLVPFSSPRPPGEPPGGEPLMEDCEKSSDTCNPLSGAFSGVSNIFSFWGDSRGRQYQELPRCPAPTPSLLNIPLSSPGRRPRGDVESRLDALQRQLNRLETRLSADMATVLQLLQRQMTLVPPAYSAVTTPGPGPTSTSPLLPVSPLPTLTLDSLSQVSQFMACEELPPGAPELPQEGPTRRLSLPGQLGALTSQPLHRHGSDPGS
compound,measurement,value
"NC(=O)c1sc(N2CCOCC2)cc1OCCc1ccccc1 [Compound 1, 5-Morpholino-3-phenethoxythiophene-2-carboxamide]",in vitro hERG liability,no in vitro hERG liability
